Anti-infective test results gathered from many reports (values: NIAID ChemDB through PubChem).

Shared fields: target-level tests; agent: HIV-1; target: Protease; read-out: inhibition

Lines come from different laboratories, so protocols vary. Inhibition is in % at the dose shown (toxicity tests: loss of growth or viability).

smiles	tested at	result
CC[C@@H](C)[C@H](NC(=O)[C@@H]1CCCN1C(=O)[C@@H](O)[C@H](Cc1ccccc1)NC(=O)[C@H](CC(N)=O)NC(=O)COc1ccccc1)C(=O)N[C@H](C(N)=O)C(C)C	5 µM	98.8%
CCOC(=O)c1cn(CC(O)CNc2ccccc2)cc1-c1ccccc1	200 µM	27%
CC(C)C[C@@H](C=O)NC(=O)[C@H](CC(C)C)NC(=O)[C@H](CC(C)C)NC(=O)OCc1ccccc1	100 µM	0%
CSCC[C@H](NC(=O)[C@H](CC(N)=O)NC(=O)CCCCCCCCCCCCCCC(=O)N[C@H](C(=O)N[C@@H](CC(C)C)C(=O)N[C@@H](Cc1ccccc1)C(N)=O)C(C)O)C(=O)O	5.5 µM	5%
CC(C)(CC(=O)O)CC(=O)N[C@@H](Cc1ccccc1)[C@H](O)C(=O)N1CSC[C@H]1C(=O)NC(C)(C)C	5 µM	50.1%
CC(C)(C)NC(=O)[C@H]1N(C(=O)[C@@H](O)[C@H](Cc2ccccc2)NC(=O)[C@H](CC(N)=O)NC(=O)COc2cccc(Cl)c2)CSC1(C)C	0.05 µM	97.7%
CC(C)(C)N(Cc1ccccc1)C(=O)NCC(O)CNC(=O)N(Cc1ccccc1)C(C)(C)C	50 µM	17.5%
CC(C)(C)NC(=O)[C@@H]1CSCN1C(=O)[C@@H](O)[C@H](Cc1ccccc1)NC(=O)C(C)(C)CC(=O)O	5 µM	61.3%
CC(C)(C)NC(=O)N(Cc1ccccc1)CC(O)CN(Cc1ccccc1)C(=O)NC(C)(C)C	10 µM	50%
CC(C)(C)NC(=O)[C@@H]1CSCN1C(=O)[C@@H](O)[C@H](Cc1ccccc1)NC(=O)CCC(C)(C)C(=O)O	5 µM	55%
CC(C)C[C@H](NC(=O)[C@H](CC(C)C)NC(=O)[C@@H](NC(=O)CCCCCCCCCCCCCCC(=O)N[C@@H](CC(N)=O)C(=O)N[C@@H](Cc1ccccc1)C(=O)O)C(C)O)C(=O)O	5.5 µM	25%
CC(C)(C)OC(=O)NC(=O)N(Cc1ccccc1)CC(O)CN(Cc1ccccc1)C(=O)NC(=O)OC(C)(C)C	10 µM	28%
CCOC(=O)c1cn(CC(O)CNc2ccccc2N)cc1-c1ccccc1	200 µM	26%
CC(C)(C)NC(=O)N(Cc1ccccc1)C[C@H](O)[C@@H](O)CN(Cc1ccccc1)C(=O)NC(C)(C)C	10 µM	78%
CCOC(=O)c1cn(CC(O)CSc2ccccc2C(=O)NC(C)(C)C)cc1-c1ccccc1	200 µM	29%
COC(=O)[C@@H](NC(=O)N(Cc1ccccc1)CC(O)CN(Cc1ccccc1)C(=O)N[C@H](C(=O)OC)C(C)C)C(C)C	10 µM	36%
CSCC[C@H](NC(=O)[C@H](CC(C)C)NC(=O)[C@@H](NC(=O)CCCCCCCCCCCCCCC(=O)N[C@@H](CC(N)=O)C(=O)N[C@@H](Cc1ccccc1)C(=O)O)C(C)O)C(=O)O	5.5 µM	15%
CC(C)(C)NC(=O)N(Cc1ccccc1O)CC(O)CN(Cc1ccccc1O)C(=O)NC(C)(C)C	10 µM	11%
CC[C@@H](C)[C@H](NC(=O)CN(CC1CCCCC1)C(=O)[C@H](O)[C@H](Cc1ccccc1)NC(=O)[C@H](CC(N)=O)NC(=O)OC(C)(C)C)C(=O)NCC1CCCCC1	1000 µM	12.2%
CCOC(=O)c1cn(CC(O)CSc2ccccc2)cc1-c1ccccc1	200 µM	24%
CC(C)[C@H](N)C(=O)N[C@H](C(=O)N[C@@H](Cc1ccccc1)[C@@H](O)C(=O)N[C@@H](Cc1ccccc1)C(=O)N[C@H](C(=O)N[C@H](C(N)=O)C(C)C)C(C)C)C(C)C	1000 µM	99%
CCOC(=O)c1cn(CC(O)CNc2ccccc2Cl)cc1-c1ccccc1	200 µM	39%
CC(C)(C)NC(=O)[C@H]1N(C(=O)[C@@H](O)[C@H](Cc2ccccc2)NC(=O)[C@H](CC(N)=O)NC(=O)C/C=C/c2ccccc2)CSC1(C)C	0.05 µM	96.3%
CC(C)C[C@H](NC(=O)[C@@H](NC(=O)CCCCCCCCCCCCCCC(=O)N[C@@H](CC(N)=O)C(=O)N[C@@H](Cc1ccccc1)C(=O)O)C(C)O)C(=O)N[C@@H](Cc1ccc(O)cc1)C(=O)O	5.5 µM	40%
CC(C(=O)O)C(C)C(=O)N[C@@H](Cc1ccccc1)[C@H](O)C(=O)N1CSC(C)(C)[C@H]1C(=O)NC(C)(C)C	0.05 µM	77.5%
CC[C@H](C)[C@H](NC(=O)[C@@H]1CCCN1C(=O)[C@H](O)[C@H](Cc1ccccc1)NC(=O)[C@H](CC(N)=O)NC(=O)CCc1ccccc1)C(=O)N[C@H](C(N)=O)C(C)C	1000 µM	98.5%
CC(C)C[C@H](NC(=O)[C@@H](NC(=O)CCCCCCCCCCCCCCC(=O)N[C@@H](CC(N)=O)C(=O)N[C@@H](Cc1ccccc1)C(=O)O)C(C)O)C(=O)N1CCC[C@H]1C(=O)O	5.5 µM	15%
CCOC(=O)c1cn(CC(O)CNc2cccc(Cl)c2)cc1-c1ccccc1	200 µM	36%
CC(C)C[C@H](NC(=O)[C@@H](NC(=O)CCCCCCCCCCCCCCC(=O)N[C@@H](CCCCN)C(=O)N[C@@H](Cc1ccccc1)C(=O)O)C(C)O)C(=O)N[C@@H](Cc1ccccc1)C(N)=O	5.5 µM	35%
CC(C)(C)NC(=O)[C@@H]1CC(O)CN1C(=O)[C@@H](O)[C@H](Cc1ccccc1)NC(=O)[C@H](CS(C)(=O)=O)NC(=O)COc1cccc2ccccc12	0.05 µM	68.4%
CC(O)[C@H](NC(=O)CCCCCCCCCCCCCCC(=O)N[C@@H](CC(N)=O)C(=O)N[C@@H](Cc1ccccc1)C(=O)O)C(=O)N[C@@H](CC(N)=O)C(=O)N[C@@H](Cc1ccccc1)C(N)=O	5.5 µM	5%
CC(C)CN(CC(O)CN(CC(C)C)C(=O)NC(C)(C)C)C(=O)NC(C)(C)C	10 µM	25%

For reference, 2 entries again:

smiles,tested at,result
CC[C@H](C)[C@H](NC(=O)[C@@H]1CCCN1C(=O)[C@H](O)[C@H](Cc1ccccc1)NC(=O)[C@H](CC(N)=O)NC(=O)CCc1ccccc1)C(=O)N[C@H](C(N)=O)C(C)C,1000 µM,98.5%
CC(C)C[C@H](NC(=O)[C@@H](NC(=O)CCCCCCCCCCCCCCC(=O)N[C@@H](CC(N)=O)C(=O)N[C@@H](Cc1ccccc1)C(=O)O)C(C)O)C(=O)N[C@@H](Cc1ccc(O)cc1)C(=O)O,5.5 µM,40%